Target: hemagglutinin (HA) of influenza A/NIBRG/60 (A/mallard/Netherlands/12/00) (H7N3) (influenza A virus …)
Test: cell-based or functional assay

Binder | VNA IC50
SD1036 (VHH) VHH: EVQLVESGGGLVQAGGSLKLSCAASGRTYAMGWFRQAPGKEREFVAHINALGTRTYYSDSVKGRFTISRDNAKNTEYLEMNNLKPEDTAVYYCTAQGQWRAAPVAVAAEYEFWGQGTQVTVSS | 6 nM
SD3023 (VHH) VHH: EVQLLESGGGLVQAGGSLRLSCAASGRTYAMSWFRQAPGKEREFVSHINALGTRTYYADSVKGRFTISRDNSKNTLYLQMNSLRPEDTAVYYCTAQGQWRAAPVAVAAEYEFWGQGTQVTVSS | 5 nM
SD3024 (VHH) VHH: EVQLLESGGGLVQPGGSLRLSCAASGRTYAMSWFRQAPGKEREFVSHINALGTRTYYADSVKGRFTISRDNSKNTLYLQMNSLRAEDTAVYYCTAQGQWRAAPVAVAAEYEFWGQGTQVTVSS | 8 nM
SD3025 (VHH) VHH: EVQLLESGGGLVQPGGSLRLSCAASGRTYAMSWFRQAPGKEREFVAHINALGTRTYYADSVKGRFTISRDNSKNTLYLQMNSLRAEDTAVYYCTAQGQWRAAPVAVAAEYEFWGQGTQVTVSS | 5 nM
SD3026 (VHH) VHH: EVQLLESGGGLVQPGGSLRLSCAASGRTYAMSWFRQAPGKEREFVSAINALGTRTYYADSVKGRFTISRDNSKNTLYLQMNSLRAEDTAVYYCTAQGQWRAAPVAVAAEYEFWGQGTQVTVSS | 3 nM
SD3027 (VHH) VHH: EVQLLESGGGLVQAGGSLRLSCAASGRTYAMSWFRQAPGKEREFVSAINALGTRTYYADSVKGRFTISRDNSKNTLYLQMNSLRPEDTAVYYCTAQGQWRAAPVAVAAEYEFWGQGTQVTVSS | 5 nM
SD3028 (VHH) VHH: EVQLLESGGGLVQAGGSLRLSCAASGRTYAMSWFRQAPGKEREFVAHINALGTRTYYADSVKGRFTISRDNSKNTLYLQMNSLRPEDTAVYYCTAQGQWRAAPVAVAAEYEFWGQGTQVTVSS | 6 nM
SD3094 (VHH) VHH: EVQLLESGGGLVQPGGSLRLSCAASGRTYAMGWFRQAPGKEREFVAHINALGTRTYYADSVKGRFTISRDNSKNTLYLQMNSLRAEDTAVYYCTAQGQWRAAPVAVAAEYEFWGQGTLVTVSS | < 4 nM
SD3095 (VHH) VHH: EVQLLESGGGLVQPGGSLRLSCAASGRTYAMGWFRQAPGKEREFVAHINALGTRTYYADSVKGRFTISRDNSKNTLYLQMNSLRPEDTAVYYCTAQGQWRAAPVAVAAEYEFWGQGTLVTVSS | < 4 nM
SD3096 (VHH) VHH: EVQLLESGGGLVQPGGSLRLSCAASGRTYAMGWFRQAPGKEREFVAHINALGTRTYYADSVKGRFTISRDNSKNTVYLQMNSLRPEDTAVYYCTAQGQWRAAPVAVAAEYEFWGQGTLVTVSS | < 4 nM
SD3097 (VHH) VHH: EVQLLESGGGLVQPGGSLRLSCAASGRTYAMGWFRQAPGKEREFVAAINALGTRTYYADSVKGRFTISRDNSKNTLYLQMNSLRAEDTAVYYCTAQGQWRAAPVAVAAEYEFWGQGTLVTVSS | 6 nM
SD3098 (VHH) VHH: EVQLLESGGGLVQPGGSLRLSCAASGRTYAMGWFRQAPGKEREFVAAINALGTRTYYADSVKGRFTISRDNSKNTLYLQMNSLRPEDTAVYYCTAQGQWRAAPVAVAAEYEFWGQGTLVTVSS | < 4 nM
SD1046 (VHH) VHH: EVQLVESGGGLVQAGDSLRISCAASGRTLSIYSMGWFRQAPGKEREFVATIGWNSGRTFYPDSLKGRFTISRDNARNTLYLQMNNLRPEDTAVYYCAAAKGPLRLSSQADYWGQGTQVTVSS | 25 nM
SD3041 (VHH) VHH: EVQLVESGGGLVQPGGSLRLSCAASGRTLSIYSMSWFRQAPGKEREFVSAIGWNSGRTYYADSVKGRFTISRDNSKNTLYLQMNSLRAEDTAVYYCAAAKGPLRLSSQADYWGQGTQVTVSS | > 1000 nM
SD3042 (VHH) VHH: EVQLVESGGGLVQPGGSLRLSCAASGRTLSIYSMSWFRQAPGKEREFVSTIGWNSGRTYYADSVKGRFTISRDNSKNTLYLQMNSLRAEDTAVYYCAAAKGPLRLSSQADYWGQGTQVTVSS | > 1000 nM
SD3043 (VHH) VHH: EVQLVESGGGLVQPGGSLRLSCAASGRTLSIYSMSWFRQAPGKEREFVATIGWNSGRTYYADSVKGRFTISRDNSKNTLYLQMNSLRAEDTAVYYCAAAKGPLRLSSQADYWGQGTQVTVSS | > 1000 nM
SD3044 (VHH) VHH: EVQLVESGGGLVQPGGSLRLSCAASGRTLSIYSMSWFRQAPGKEREFVSTIGWNSGRTYYADSVKGRFTISRDNARNTLYLQMNSLRAEDTAVYYCAAAKGPLRLSSQADYWGQGTQVTVSS | > 1000 nM
SD3045 (VHH) VHH: EVQLVESGGGLVQAGGSLRLSCAASGRTLSIYSMSWFRQAPGKEREFVSAIGWNSGRTYYADSVKGRFTISRDNSKNTLYLQMNSLRAEDTAVYYCAAAKGPLRLSSQADYWGQGTQVTVSS | > 1000 nM
SD3046 (VHH) VHH: EVQLVESGGGLVQAGGSLRLSCAASGRTLSIYSMSWFRQAPGKEREFVSTIGWNSGRTYYADSVKGRFTISRDNSKNTLYLQMNSLRAEDTAVYYCAAAKGPLRLSSQADYWGQGTQVTVSS | > 1000 nM
SD3047 (VHH) VHH: EVQLVESGGGLVQAGGSLRLSCAASGRTLSIYSMSWFRQAPGKEREFVATIGWNSGRTYYADSVKGRFTISRDNSKNTLYLQMNSLRAEDTAVYYCAAAKGPLRLSSQADYWGQGTQVTVSS | > 1000 nM
SD3048 (VHH) VHH: EVQLVESGGGLVQAGGSLRLSCAASGRTLSIYSMSWFRQAPGKEREFVSTIGWNSGRTYYADSVKGRFTISRDNARNTLYLQMNSLRAEDTAVYYCAAAKGPLRLSSQADYWGQGTQVTVSS | > 1000 nM
SD3067 (VHH) VHH: EVQLVESGGGLVQPGGSLRLSCAASGRTLSIYSMGWFRQAPGKEREFVATIGWNSGRTFYPDSLKGRFTISRDNSKNTLYLQMNSLRAEDTAVYYCAAAKGPLRLSSQADYWGQGTLVTVSS | 10 nM
SD3068 (VHH) VHH: EVQLVESGGGLVQPGGSLRLSCAASGRTLSIYSMGWFRQAPGKEREFVSTIGWNSGRTFYPDSLKGRFTISRDNSKNTLYLQMNSLRAEDTAVYYCAAAKGPLRLSSQADYWGQGTLVTVSS | 10 nM
SD3099 (VHH) VHH: EVQLVESGGGLVQPGGSLRLSCAASGRTLSIYSMGWFRQAPGKEREFVATIGWNSGRTFYPDSVKGRFTISRDNSKNTLYLQMNSLRAEDTAVYYCAAAKGPLRLSSQADYWGQGTLVTVSS | 26 nM

— patent US20190359693A1, “Binding molecules directed against influenza hemagglutinin and uses thereof” (Janssen / Centocor, published 2019)
